Measured values from patent US20090239285A1, “TANDEM REAPEAT DNA CONSTRUCTS PRODUCING PROTEINS THAT ATTACK PLANT PATHOGENIC VIRUSES, FUNGI, AND BACTERIA BY DISRUPTING TRANSCRIPTION FACTORS ESSENTIAL FOR REPLICATION THEREOF IN PLANTS” (priority 2008, published 2009).

Assay: Picolinic acid levels in syngenic Cassava plant cells after Geminivirus infection
Assay type: in vivo

Q: With `O=C(O)c1ccccn1` [Picolinic acid, 2-pyridine carboxylic acid] as the compound, how does the “intracellular PA concentration reached” value (within 3 h) read?
A: 0.5 mM

Q: And the “basal level of picolinic acid” value (within 3 h of virus destruction)?
A: < 0.5 mM
